Mutational tolerance of the Zika virus NS2B-NS3 protease

The scanned region of Zika virus MR766 is shown below (positions 1-308): NS2B is 2-131, NS3 begins at position 132.
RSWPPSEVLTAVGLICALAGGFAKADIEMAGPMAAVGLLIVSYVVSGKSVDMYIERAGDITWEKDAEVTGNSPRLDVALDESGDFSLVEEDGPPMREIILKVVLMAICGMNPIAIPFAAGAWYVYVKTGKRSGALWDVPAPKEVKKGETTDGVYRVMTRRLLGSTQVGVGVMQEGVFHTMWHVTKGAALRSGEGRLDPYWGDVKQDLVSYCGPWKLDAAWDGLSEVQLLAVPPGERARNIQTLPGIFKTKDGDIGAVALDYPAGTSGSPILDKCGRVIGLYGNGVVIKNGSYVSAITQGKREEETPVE

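Pools of virus carrying all single amino acid changes were selected for growth in Huh-7.5 cells. Deep sequencing gave the change in frequency of each mutant relative to wild type, averaged over three replicate libraries (two for positions 207-308).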

Scale: log2 effect, wild type = 0; the lower, the more harmful to the virus. Substitutions are written as wild-type residue, site number, new residue. Values above 0 are not proof of better growth: six high scorers were tested one by one, five grew less well than wild type and one about as well.

mutation	effect (log2)
P93*	-6.22
P93A	-4.27
P93C	-3.30
P93D	-5.07
P93E	-3.93
P93F	-2.77
P93G	-4.67
P93H	-5.24
P93I	-1.11
P93K	-5.82
P93L	-1.97
P93M	-2.79
P93N	-5.62
P93Q	-3.50
P93R	-5.80
P93S	-5.99
P93T	-3.57
P93V	-2.20
P93W	-4.11
P93Y	-3.30
P94*	-6.07
P94A	-1.80
P94C	-1.29
P94D	-1.10
P94E	-1.21
P94F	-2.40
P94G	-3.29
P94H	-3.14
P94I	-2.10
P94K	-4.58
P94L	-2.55
P94M	-1.51
P94N	-0.91
P94Q	-1.52
P94R	-2.64
P94S	-1.64
P94T	-2.76
P94V	-2.30
P94W	-3.16
P94Y	-3.59
M95*	-7.34
M95A	-2.62
M95C	-1.66
M95D	-4.74
M95E	-5.28
M95F	-0.74
M95G	-3.93
M95H	-3.88
M95I	-1.17
M95K	-2.55
M95L	-0.64
M95N	-3.00
M95P	-3.22
M95Q	-5.96
M95R	-4.23
M95S	-3.34
M95T	-1.81
M95V	-1.35
M95W	0.16
M95Y	-0.05
R96*	-6.90
R96A	-4.05
R96C	-4.73
R96D	-4.70
R96E	-5.48
R96F	-4.50
R96G	-4.93
R96H	-3.62
R96I	-2.96
R96K	-0.33
R96L	-5.05
R96M	-4.46
R96N	-2.82
R96P	-3.67
R96Q	-2.54
R96S	-2.01
R96T	-2.92
R96V	-4.88
R96W	-3.16
R96Y	-3.58
E97*	-4.35
E97A	-2.80
E97C	-3.36
E97D	-2.76
E97F	-3.71
E97G	-6.66
E97H	-3.59
E97I	-4.50
E97K	-5.82
E97L	-3.24
E97M	-2.63
E97N	-4.79
E97P	-6.84
E97Q	-1.32
E97R	-7.01
E97S	-3.75
E97T	-2.48
E97V	-2.81
E97W	-4.18
E97Y	-2.97

The opening 6 entries, copied out:

{"mutation": "P93*", "effect (log2)": -6.22}
{"mutation": "P93A", "effect (log2)": -4.27}
{"mutation": "P93C", "effect (log2)": -3.30}
{"mutation": "P93D", "effect (log2)": -5.07}
{"mutation": "P93E", "effect (log2)": -3.93}
{"mutation": "P93F", "effect (log2)": -2.77}

The region was split into three libraries (1-103, 104-206, 207-308). The authors count -1 or higher as tolerated. Position 1 is the last residue of NS2A. Stop codons (*) centre on -7 and mark the level of dead virus.

Reference: Ni et al. 2025, doi:10.1038/s41467-025-63602-z.